Measured values from several laboratories, pooled; numbers as filed in NIAID ChemDB.

Common to all: whole-cell or culture tests; species: Candida albicans; measure: MIC

Conditions beyond the fields shown may differ between rows.

SMILES	strain	value
C[C@H]1[C@H](O)[C@@H](C)/C=C/C=C/C=C/C=C/C=C/C=C/C=C/[C@H](O[C@@H]2O[C@H](C)[C@@H](O)[C@H](N)[C@@H]2O)C[C@@H]2O[C@](O)(C[C@@H](O)C[C@@H](O)CC[C@H](O)[C@@H](O)C[C@@H](O)CC(=O)O[C@H]1C)C[C@H](O)[C@H]2C(=O)O	B59630	0.125 µg/mL
CC(O)C1NC(=O)C(CCc2ccc(O)cc2)NC(=O)C2C[C@@H](O)CN2C(=O)C(C(C)O)NC(=O)[C@@H](NC(=O)c2ccccc2)CCCNC(=O)C2C[C@H](N)CN2C1=O	ATCC CCH442	>100 µg/mL
N=C(N)c1ccc2nc(-c3ccc(-c4nc5ccc(C(=N)N)cc5[nH]4)[nH]3)[nH]c2c1	Isolate CA1548	0.39 µg/mL
CCCCCOc1ccc(-c2ccc(-c3ccc(C(=O)N[C@H]4CCCNC(=O)C5CN(C(=O)OCc6ccccc6)CN5C(=O)C(C(C)O)NC(=O)C(CCc5ccc(O)cc5)NC(=O)C5C[C@@H](O)CN5C(=O)C(C(C)O)NC4=O)cc3)cc2)cc1	ATCC 10231	100 µg/mL
CCOc1cc2c(cc1F)n([O-])c(C)c(Cl)[n+]2=O	Clinical isolate 17	62.5 µg/mL
CCCCCOc1ccc(-c2ccc(-c3ccc(CN[C@H]4CCCNC(=O)C5C[C@H](N)CN5C(=O)C(C(C)O)NC(=O)C(CCc5ccc(O)cc5)NC(=O)C5C[C@@H](O)CN5C(=O)C(C(C)O)NC4=O)cc3)cc2)cc1	ATCC 10231	0.39 µg/mL
Cc1c(Sc2ccccc2)[n+](=O)c2cc(C(F)(F)F)ccc2n1[O-]	Clinical isolate 18	15.6 µg/mL
Clc1ccc(C(Cn2ccnc2)OCc2cccc3ccccc23)c(Cl)c1	5M	8 µg/mL
CCCCCOc1ccc(-c2ccc(-c3ccc(C(=O)N[C@H]4CCCNC(=O)C5C[C@H](N)CN5C(=O)C(C(C)O)NC(=O)C(c5ccc(O)cc5)NC(=O)C5CC(O)CN5C(=O)C(C(C)O)NC4=O)cc3)cc2)cc1	ATCC 10231	50 µg/mL
C(=C\c1ccccc1)/COC(Cn1ccnc1)c1ccccc1	CA6	128 µg/mL
O[C@](Cn1cncn1)(Cn1cnc(/C=C/c2ccc(OCC(F)(F)C(F)F)cc2)n1)c1ccc(F)cc1F	Isolate 02-22	4 µg/mL
Clc1ccc(C(Cn2ccnc2)OC/C=C/c2ccccc2)c(Cl)c1	CA12	8 µg/mL
CN(CCCC#CC(C)(C)C)c1cccc2c1CCC(=O)N2	Clinical isolate 11	31.25 µg/mL
Cc1ccc(C(Cn2ccnc2)OCc2ccc(C(C)(C)C)cc2)cc1	3M	>128 µg/mL
CCCCCCCCOc1ccc(N2CCN(c3ccc(C(=O)N[C@H]4CCCNC(=O)C5C[C@H](N)CN5C(=O)C(C(C)O)NC(=O)C(OCc5ccncc5)NC(=O)C5CCCN5C(=O)C(C(C)O)NC4=O)cc3)CC2)cc1	ATCC 10231	1.56 µg/mL
CC(C)(C)c1ccc(COC(Cn2ccnc2)c2ccccc2)cc1	Y0109	>128 µg/mL
Cc1c(O)cccc1C(=O)N[C@@H](CSc1ccccc1)[C@H](O)CN1C[C@H]2CCCC[C@H]2C[C@H]1C(=O)NC(C)(C)C	I9F	64 µg/mL
CC(C)(C)c1ccc(COC(Cn2ccnc2)c2ccc(Cl)cc2)cc1	Y0109	>128 µg/mL
CCCCCCCCCCCCOc1ccc(N2CCN(c3ccc(C(=O)N[C@H]4CCCNC(=O)C5C[C@H](N)CN5C(=O)C(C(C)O)NC(=O)C(CCc5ccc(O)cc5)NC(=O)C5C[C@@H](O)CN5C(=O)C(C(C)O)NC4=O)cc3)CC2)cc1	ATCC 62376	0.78 µg/mL
Clc1ccc(C(Cn2ccnc2)OCc2ccc(-c3ccccc3)cc2)cc1	5M	>128 µg/mL
Cc1c(S(=O)(=O)c2ccccc2)[n+](=O)c2ccccc2n1[O-]	Clinical isolate 7	15.6 µg/mL

A second listing of 2 rows from above:

CC(C)(C)c1ccc(COC(Cn2ccnc2)c2ccc(Cl)cc2)cc1 ; strain: Y0109 ; value: >128 µg/mL
N=C(N)c1ccc2nc(-c3ccc(-c4nc5ccc(C(=N)N)cc5[nH]4)[nH]3)[nH]c2c1 ; strain: Isolate CA1548 ; value: 0.39 µg/mL